Assay results: US4520101A (priority 1983, dated 1985)

What was measured:
[1] = tested on: desacetylcephalosporin C production; experiment: Fermentors, additional phosphorous compounds (Example 7)
[2] = tested on: desacetylcephalosporin C production; experiment: Shake flask fermentations, additional phosphorous compounds (Example 6)

CCOP(OCC)OP(OCC)OCC
inhibitory activity with respect to desacetylcephalosporin C production [1]: exhibited inhibitory activity | inhibitory activity with respect to desacetylcephalosporin C production [2]: exhibited inhibitory activity

ClCCOP(OCCCl)OCCCl
inhibitory activity with respect to desacetylcephalosporin C production [2]: exhibited inhibitory activity

C=CCP(=O)(OCC)OCC
inhibitory activity with respect to desacetylcephalosporin C production [2]: exhibited inhibitory activity

COP(=O)(CC#N)OC
inhibitory activity with respect to desacetylcephalosporin C production [2]: exhibited inhibitory activity

CCCCOP(OCCCC)OCCCC
inhibitory activity with respect to desacetylcephalosporin C production [2]: exhibited inhibitory activity

ClP(Cl)OCC(Cl)(Cl)Cl
inhibitory activity with respect to desacetylcephalosporin C production [1]: exhibited inhibitory activity | inhibitory activity with respect to desacetylcephalosporin C production [2]: exhibited inhibitory activity
